Assay results: PMC10026892

Molecular target: ACE2-Fc (UniProt Q9BYF1)
Test: SPR

B.1.351 S-Trimer protein (prefusion-stabilized SARS-CoV-2 spike ectodomain with T4 fibritin trimerization motif) (from UniProt P0DTC2 12-1208)
Kd: 0.447 nM
